A mixed list of measured activities; the numbers were collected in NIAID ChemDB.

Shared fields: growth or infection tests; agent: Mycobacterium tuberculosis

Inhibition is in % at the dose shown (toxicity tests: loss of growth or viability).

structure	measure	mutations	dose	strain	conditions	read by	result
CO[C@H]1/C=C/O[C@@]2(C)Oc3c(C)c(O)c4c(O)c(c(/C=N/N5CCN(C)CC5)c(O)c4c3C2=O)NC(=O)/C(C)=C\C=C\[C@H](C)[C@H](O)[C@@H](C)[C@@H](O)[C@@H](C)[C@H](OC(C)=O)[C@@H]1C	MIC			TF274			100 µM
N[C@@H]1CN(c2c(F)cc3c(=O)c(C(=O)O)cn([C@@H]4C[C@@H]4F)c3c2Cl)CC12CC2	MIC	Gyrase Ala90Val		Clinical strain		resazurin	0.125–0.5 µg/mL
CCC1=C2C(=O)c3ccccc3C2=C(C)S(=O)(=O)O1	inhibition		12.5 µg/mL	H37Rv		BACTEC	0%
CCCCCCCCCN1C(=O)CCCC1=O	MIC			H37Ra			≤20 µg/mL
O=C([C@@H](O)CO)N1CC=C(c2c(F)cc(N3C[C@H](COc4ccon4)OC3=O)cc2F)CC1	MIC			H37Rv Beijing		broth dilution	0.25 µg/mL
CCCCCCCCCN1C(=O)CC(SCCNC(=O)c2ccc([N+](=O)[O-])cc2)C1=O	MIC			Clinical isolate (isoniazid-resistant)			≤20 µg/mL
Cc1nc2scc(-c3ccco3)c2c(=O)n1/N=C/c1ccccc1	MIC			CNCTC MY331/88			52 µM
Cc1cccc(C(N)=Nc2nc(-c3ccccn3)cc3ccccc23)c1	MIC			J-3147			1 µg/mL
COc1ccc(NC(=O)/N=C2\CN(C(=O)c3c(F)cccc3F)C(=O)N2c2ccc(OC)cc2)cc1	inhibition		12.5 µg/mL	H37Rv		BACTEC	0%
O=C1c2cc(Cl)nnc2Oc2ccc3ccccc3c2N1CC1CCCCC1	EC50			H37Rv		BACTEC	>12.5 µg/mL
C[C@H](N)C(=O)N[C@@H]1[C@H]2C(=C(O)C[C@@H](O)[C@@H]2O)C(=O)O[C@]1(C)C(Cl)Cl	MIC			CS-R			1.6 µg/mL
CC(=O)n1nc(-c2ccc(N=Nc3c(C)[nH]n(-c4ccccc4)c3=O)cc2)n(-c2ccccc2)c1=S	EC50			H37Rv			~12.5 µg/mL
CCCCCc1nnc2n1N=C(c1ccc(Cl)cc1)CS2	MIC bound			H37Rv		BACTEC	>12.5 µg/mL
CO[C@H]1/C=C/O[C@@]2(C)Oc3c(C)c(O)c4c(O)c(c5c(c4c3C2=O)NC2(C[C@@H](c3ccc(F)cc3)N[C@@H](c3ccc(F)cc3)C2)N=5)=NC(=O)/C(C)=C\C=C\[C@H](C)[C@H](O)[C@@H](C)[C@H](O)[C@H](C)[C@H](OC(C)=O)[C@@H]1C	MIC			ATCC 35837 (ethambutol-resistant)			0.02 µg/mL
CC(C)[C@H]1CO[C@]23CC[C@@H](OC(c4ccc(Cl)cc4)c4ccc(Cl)cc4)C[C@H]2CCC(=O)N13	MIC					resazurin	<0.5 µM
O=C1c2c(O)ccc(O)c2C(=O)c2c(NCCO)ccc(NCCO)c21	inhibition		12.5 µg/mL	H37Rv		BACTEC	36%
C/C=C/c1ccc2c(c1)[C@@H](C)[C@H](c1ccc(OC)cc1)O2	MIC			Clinical isolate 4851		resazurin / absorbance	7.8 µg/mL
Cc1nc2scc(-c3ccco3)c2c(=O)n1/N=C/c1cccs1	MIC			CNCTC MY331/88			50 µM
Nc1nc(N)nc(-c2ccc([N+](=O)[O-])o2)n1	MIC			PAS-R			3.1 µg/mL
CC(C)[C@H]1CO[C@]23CC[C@@H](OCc4ccc(C(F)(F)F)cc4)C[C@H]2CCC(=O)N13	MIC					resazurin	<0.5 µg/mL
Cc1[nH][nH]c(=O)c1N=Nc1ccc(-c2n[nH]c(=S)n2-c2ccccc2)cc1	inhibition		12.5 µg/mL	H37Rv			0%
CCn1c(-c2cc3cc(Br)ccc3oc2=O)cs/c1=N\N=C\c1cc(Br)ccc1O	inhibition		12.5 µg/mL	H37Rv			81%
CN(C)CCNc1ccc(CO)c2oc3ccc(O)cc3c(=O)c12	inhibition		12.5 µg/mL	H37Rv		BACTEC	18%
Cc1ccc(Cn2nnc(-c3cc([N+](=O)[O-])cc([N+](=O)[O-])c3)n2)cc1	MIC			My 331/88	14 d		0.125 µM
COc1cc(C(c2c(O)c3ccccc3oc2=O)c2c(O)c3ccccc3oc2=O)cc(OC)c1O	MIC bound			H37Rv		BACTEC	>12.5 µg/mL
C[C@@H]1CN(c2c(F)c(N)c3c(=O)c(C(=O)O)cn(C4CC4)c3c2F)C[C@H](C)N1	MIC			900240			0.1 µg/mL
CCn1c(-c2cc3ccccc3oc2=O)cs/c1=N\N=C\c1cc(Br)ccc1O	inhibition		12.5 µg/mL	H37Rv			83%
O=C1C(=O)c2nc3ccccc3nc2-c2ccccc21	MIC			H37Rv		BACTEC	12.5 µg/mL
Cc1[nH]n(-c2ccccc2)c(=O)c1N=Nc1ccc(-c2n[nH]c(=O)n2-c2ccccc2)cc1	inhibition		12.5 µg/mL	H37Rv			0%
CCCCCCCCCN1C(=O)CCC1=O	MIC			H37Ra			≤20 µg/mL
COc1cc(-c2ccc(N=Nc3ccc4c(S(=O)(=O)O)cc(S(=O)(=O)O)c(N)c4c3O)c(OC)c2)ccc1N=Nc1ccc2c(S(=O)(=O)O)cc(S(=O)(=O)O)c(N)c2c1O	MIC bound			H37Rv		BACTEC	>12.5 µg/mL
NNC(=O)c1ccncc1	MIC			Clinical isolate 11		resazurin / absorbance	0.03 µg/mL
CCOC(=O)/C(N=Nc1ccc(C(=O)N/N=C\c2ccc(F)cc2)cc1)=C(\C)O	EC50			H37Rv			<12.5 µg/mL
CCCCCCCCCN1C(=O)c2cc(Cl)nnc2Oc2ccc(C)cc21	EC50			H37Rv		BACTEC	>12.5 µg/mL
CCOC(=O)/C(N=Nc1ccc(-c2n[nH]c(=O)n2-c2ccccc2)cc1)=C(\C)O	EC50			H37Rv			>12.5 µg/mL
CN(C)CCCN1c2ccccc2Sc2ccc(Cl)cc21	MBC			ATCC 27294			20 µg/mL
Cc1cn2c(nc1=O)O[C@@H]1C[C@H]2O[C@@H]1CO	inhibition		12.5 µg/mL	H37Rv		BACTEC	10%
Cc1[nH]n(CCO)c(=O)c1N=Nc1ccc(-c2n[nH]c(=S)o2)cc1	EC50			H37Rv			>12.5 µg/mL
CC(C)[C@H]1CO[C@]23CC[C@H](NCc4cc(C(F)(F)F)nc5c(C(F)(F)F)cccc45)C[C@H]2CCC(=O)N13	MIC					resazurin	<0.5 µM
C[C@@H]1Cn2cc(C(=O)O)c(=O)c3cc(F)c(N4CCN(/C(N)=N/C(N)=NCCCCCCN=C(N)/N=C(\N)N5CCN(c6c(F)cc7c(=O)c(C(=O)O)cn8c7c6O[C@@H](C)C8)CC5)CC4)c(c32)O1	MIC			ATCC 35827		broth dilution	1.25–2.5 µg/mL
CCCCCCCN1C(=O)c2cc(Cl)nnc2Oc2cc(C)ccc21	EC50			H37Rv		BACTEC	<12.5 µg/mL
Cc1nc2scc(-c3ccco3)c2c(=O)n1/N=C/c1ccc(F)cc1F	MIC			CNCTC MY331/88			5 µM
CC(C)[C@H]1CO[C@]23CC[C@@H](N(CCCF)Cc4ccc(C(F)(F)F)cc4)C[C@H]2CCC(=O)N13	MIC					resazurin	<0.5 µM
CO[C@H]1/C=C/O[C@@]2(C)Oc3c(C)c(O)c4c(=O)c(c5oc6cc(N7CCN(CC(C)C)CC7)cc(=O)c6nc5c4c3=C2O)NC(=O)/C(C)=C\C=C\[C@H](C)[C@H](O)[C@@H](C)[C@@H](O)[C@@H](C)[C@H](OC(C)=O)[C@@H]1C	MIC			9 (rifampicin-resistant)			4 µg/mL
CCOC(=O)/C=C/c1ccc(OC)cc1	MIC			BTB08-043		resazurin	242 µM
O=C(Nc1ccc(Cl)c(Cl)c1)OCCN1c2ccccc2Sc2ccccc21	inhibition		12.5 µg/mL	H37Rv		BACTEC	-6%
CCCCCCCCCN1C(=O)CC(SCCN)C1=O	MIC			H37Ra			≤20 µg/mL
CCO/C=C1\N=C(C(Cl)c2ccccc2)OC1=O	inhibition		12.5 µg/mL	H37Rv		BACTEC	32%
CC(=O)Nn1c(C)nc2scc(-c3ccco3)c2c1=O	MIC			CNCTC MY331/88			200 µM
CC1COc2c(N3CCN(C)CC3)c(F)cc3c(=O)c(C(=O)O)cn1c23	MIC			DP299S		broth dilution	0.5 µg/mL
CS(=O)CCC1C(=O)OC(C(C)(C)C)N1C(=O)c1ccccc1	inhibition		12.5 µg/mL	H37Rv		BACTEC	4%
C=CCN1[C@@H](c2ccccc2)CC2(C[C@H]1c1ccccc1)N=c1c(c3c4c5c(C)c(O)c3c(O)c1=NC(=O)/C(C)=C\C=C\[C@H](C)[C@H](O)[C@@H](C)[C@H](O)[C@H](C)[C@H](OC(C)=O)[C@H](C)[C@@H](OC)/C=C/O[C@@](C)(O5)C4=O)N2	MIC			ATCC 35837 (ethambutol-resistant)			0.02 µg/mL
NC(=O)c1ccncc1	MIC			H37Rv		resazurin	>25 µg/mL
NNC(=O)c1cccc([N+](=O)[O-])c1	inhibition		12.5 µg/mL	H37Rv		BACTEC	12%
CCn1c(-c2ccc(N=Nc3c(C)[nH]n(-c4ccccc4)c3=O)cc2)n[nH]c1=S	EC50			H37Rv			<12.5 µg/mL
O=C1c2cc(Cl)nnc2Oc2ccc3ccccc3c2N1CCCC1CCCCC1	inhibition		12.5 µg/mL	H37Rv		BACTEC	11%
CCCCn1c(-c2cc3cc(Br)ccc3oc2=O)cs/c1=N\N=C\c1ccc(Cl)cc1	inhibition		12.5 µg/mL	H37Rv			71%
O=C(Nc1cc(C(=O)Nc2ccc(C3=NCCN3)cc2)cc(C(=O)Nc2ccc(C3=NCCN3)cc2)c1)c1ccc(C(=O)Nc2cc(C(=O)Nc3ccc(C4=NCCN4)cc3)ccc2C(=O)Nc2ccc(C3=NCCN3)cc2)cc1	inhibition		12.5 µg/mL	H37Rv		BACTEC	38%
CO[C@H]1/C=C/O[C@@]2(C)Oc3c(C)c(O)c4c(O)c(c(/C=N/N5CCN(C)CC5)c(O)c4c3C2=O)NC(=O)/C(C)=C\C=C\[C@H](C)[C@H](O)[C@@H](C)[C@@H](O)[C@@H](C)[C@H](OC(C)=O)[C@@H]1C	MIC			234/2005			>9.7 µM
C/C=C/c1ccc2oc(-c3ccc(OC)c(OC)c3)c(C)c2c1	MIC			Clinical isolate 49		resazurin / absorbance	3.9 µg/mL
CCn1c(-c2cc3cc(Br)ccc3oc2=O)cs/c1=N\N=C\c1ccc(Cl)cc1	MIC			H37Rv			>12.5 µg/mL
CN(C)Cc1cc(C(=O)/C=C/c2c(F)cccc2Cl)cc(CN(C)C)c1O	MIC bound			H37Rv		resazurin	>6.25 µg/mL
O=c1oc2ccccc2cc1-c1cs/c(=N/N=C/c2ccc(Cl)cc2)n1C1CCCCC1	EC50			H37Rv			<12.5 µg/mL
NC(N)=NC(N)=Nc1cc2c3ccccc3ccc2c2ccccc12	MIC			H37Rv		resazurin	>6.25 µg/mL
CC(C)[C@H]1CO[C@]23CC[C@H](N(CCCCS(C)(=O)=O)Cc4ccc(C(F)(F)F)cc4)C[C@H]2CCC(=O)N13	MIC					resazurin	<0.5 µM
COc1c2c(c(Cc3c4c(c(OC)c5c3OCO5)OC(C)C4)c3c1OCO3)CC(C)O2	inhibition		12.5 µg/mL	H37Rv		BACTEC	-11%
CC(C)[C@H]1CO[C@]23CC[C@H](NCc4cc(C(F)(F)F)nc5c(F)cccc45)C[C@H]2CCC(=O)N13	MIC					resazurin	0.5–5 µM
CN[C@@H]1[C@@H](O)[C@@H](O[C@@H]2[C@@H](O)[C@H](O[C@H]3O[C@H](CN)CC[C@H]3N)[C@@H](N)C[C@H]2N)OC[C@]1(C)O	MIC			Praha 1			1.05 µM
CO[C@H]1/C=C/O[C@@]2(C)Oc3c(C)c(O)c4c(O)c(c5c(c4c3C2=O)NC2(CCNCC2)N=5)=NC(=O)/C(C)=C\C=C\[C@H](C)[C@H](O)[C@@H](C)[C@@H](O)[C@@H](C)[C@H](OC(C)=O)[C@@H]1C	MIC			ATCC 35837 (ethambutol-resistant)			2 µg/mL
C/C=C1/C(=O)O[C@]23C=C[C@@H]4C(C(=O)OC)=CO[C@H](O[C@@H]12)[C@@H]43	MIC			MDR4 clinical isolate		MTT	2 µg/mL
O=C1CSC(c2ccccc2Br)N1c1nncs1	MIC bound			H37Rv		BACTEC	>12.5 µg/mL
CO[C@H]1/C=C/O[C@@]2(C)Oc3c(C)c(O)c4c(O)c(c5c(c4c3C2=O)NC2(CCN(CC(C)C)CC2)N=5)=NC(=O)/C(C)=C\C=C\[C@H](C)[C@H](O)[C@@H](C)[C@@H](O)[C@@H](C)[C@H](OC(C)=O)[C@@H]1C	MIC			H37Rv			≤0.015 µg/mL
CC(C)[C@H]1CO[C@]23CC[C@H](N(Cc4ccc(C(F)(F)F)cc4)C4CN(CCCF)C4)C[C@H]2CCC(=O)N13	MIC					resazurin	<0.5 µM
CC(=O)NC[C@H]1CN(c2ccc(N3CCOCC3)c(F)c2)C(=O)O1	MIC	T460C Cys154Arg		AZD5847-resistant 4.6			16 µg/mL

A second listing of 9 rows from above:

| structure | measure | mutations | dose | strain | conditions | read by | result |
|---|---|---|---|---|---|---|---|
| COc1cc(-c2ccc(N=Nc3ccc4c(S(=O)(=O)O)cc(S(=O)(=O)O)c(N)c4c3O)c(OC)c2)ccc1N=Nc1ccc2c(S(=O)(=O)O)cc(S(=O)(=O)O)c(N)c2c1O | MIC bound |  |  | H37Rv |  | BACTEC | >12.5 µg/mL |
| NC(=O)c1ccncc1 | MIC |  |  | H37Rv |  | resazurin | >25 µg/mL |
| Cc1nc2scc(-c3ccco3)c2c(=O)n1/N=C/c1cccs1 | MIC |  |  | CNCTC MY331/88 |  |  | 50 µM |
| COc1c2c(c(Cc3c4c(c(OC)c5c3OCO5)OC(C)C4)c3c1OCO3)CC(C)O2 | inhibition |  | 12.5 µg/mL | H37Rv |  | BACTEC | -11% |
| O=C1CSC(c2ccccc2Br)N1c1nncs1 | MIC bound |  |  | H37Rv |  | BACTEC | >12.5 µg/mL |
| CC(C)[C@H]1CO[C@]23CC[C@H](N(Cc4ccc(C(F)(F)F)cc4)C4CN(CCCF)C4)C[C@H]2CCC(=O)N13 | MIC |  |  |  |  | resazurin | <0.5 µM |
| Nc1nc(N)nc(-c2ccc([N+](=O)[O-])o2)n1 | MIC |  |  | PAS-R |  |  | 3.1 µg/mL |
| C[C@@H]1CN(c2c(F)c(N)c3c(=O)c(C(=O)O)cn(C4CC4)c3c2F)C[C@H](C)N1 | MIC |  |  | 900240 |  |  | 0.1 µg/mL |
| CCCCCCCCCN1C(=O)CC(SCCNC(=O)c2ccc([N+](=O)[O-])cc2)C1=O | MIC |  |  | Clinical isolate (isoniazid-resistant) |  |  | ≤20 µg/mL |

ECn is the concentration giving n% inhibition of infection, replication or growth. MIC bound: limit read from a one-dose screen. a–b is a range or a potency band. Blank or dashed fields: not listed here. Conditions beyond the fields shown may differ between rows.